ChEMBL document CHEMBL2040549, “Inhibition of cap (m7GpppXm)-dependent endonuclease of influenza virus by 4-substituted 2,4-dioxobutanoic acid compounds” (Antimicrob Agents Chemother, 1994)

Biological target: Polymerase acidic protein (Influenza A virus (A/Puerto Rico/8/1934(H1N1)), UniProt P03433)
Assay: Inhibition of cap 1 ALMV primed Influenza transcriptase

O=C(O)/C=C/C(=O)c1ccccc1
IC50: > 500 µM
